Experiments:
[1] = test system: CC(=O)CC(=O)SCCNC(=O)CCNC(=O)[C@H](O)C(C)(C)COP(=O)(O)OP(=O)(O)OC[C@H]1O[C@@H](n2cnc3c(N)ncnc32)[C@H](O)[C@@H]1OP(=O)(O)O; assay: purified protein; details: pH 7.4
[2] = test system: NC(=O)C1=CN([C@@H]2O[C@H](COP(=O)(O)OP(=O)(O)OC[C@H]3O[C@@H](n4cnc5c(N)ncnc54)[C@H](OP(=O)(O)O)[C@@H]3O)[C@@H](O)[C@H]2O)C=CC1; assay: purified protein; details: pH 7.4; varied: cofactor

## YpFabG (Yersinia pestis)
[1]
  Km: 329.9 ± 31.2 µM
[2]
  Km: 55.1 ± 3.8 µM

Source: PMC4635001, “Structural Characterisation of FabG from Yersinia pestis, a Key Component of Bacterial Fatty Acid Synthesis” (PLoS ONE, 2015)
